Activity calls are given as the source filed them.
Experiments:
Assay type in all cases: functional
Trypanosoma cruzi [1] = assay: Antitrypanosomal activity against Trypanosoma cruzi infected in albino CF1 mouse assessed as reduction in number of parasites in blood at 13 mg/kg/day, intramuscular treatment started on day 10 of infection up to day 14
How it was run: (§1)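 Male CF1 albino mice (4-10 weeks) infected intraperitoneally with 50 000 Brazil-strain T. cruzi trypomastigotes in Hanks' balanced salt solution, pH 7.2. Dosing was intramuscular, twice daily, from day 10 to day 13 afternoon or day 14 morning. Vehicle was 0.1% Tween 80 + 0.5% hydroxyethylcellulose. Seven mice per dose; dose given as total salt weight. Parasites/mL blood counted from day-14 smears; % suppression versus vehicle controls.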

Trypanosoma cruzi [2] = assay: Antitrypanosomal activity against Trypanosoma cruzi infected in albino CF1 mouse assessed as reduction in number of parasites in blood at 52 mg/kg/day, intramuscular treatment started on day 10 of infection up to day 14; how it was run: as §1
Trypanosoma cruzi [3] = assay: Antitrypanosomal activity against Trypanosoma cruzi infected in albino CF1 mouse assessed as reduction in number of parasites in blood at 104 mg/kg/day, intramuscular treatment started on day 10 of infection up to day 14; how it was run: as §1

Measured: inhibition

O=[As]c1ccc2[nH]c(=O)[nH]c2c1 (stereo not drawn)
inactive: Trypanosoma cruzi [1] | Trypanosoma cruzi [2] | Trypanosoma cruzi [3]

Reference: ChEMBL document CHEMBL3244238, “In search of anti-Trypanosoma cruzi drugs: new leads from a mouse model” (J Med Chem, 1977)
